Measured values from several laboratories, pooled; numbers as filed in NIAID ChemDB.

Shared fields: whole-cell or culture tests; organism: Mycobacterium tuberculosis

Percent inhibition refers to the dose given; in toxicity tests it is the harm to the cells. A number after MIC or MFC names an inhibition level or a share of isolates. MIC bound comes from a single tested concentration. ECn is the concentration giving n% inhibition of infection, replication or growth. An empty or dashed field is not shown. Lines come from different laboratories, so protocols vary.

smiles	dose	read by	read-out	strain	conditions	mutations	value
CCOC(=O)N1CCN(c2cc(-c3ccccc3)c3ccc(Cl)nc3n2)CC1	12.5 µg/mL		inhibition	H37Rv			71%
CCCCCCn1c(=O)c2c3c(cnc2n(CCCCCC)c1=O)C(=O)C1=C(C3=O)C2CCC1C2		luminescence	EC90	H37Rv		pSMT1 luciferase reporter plasmid	5.43 µg/mL
S=C1NC2=C(CSC/C2=C/c2ccc(Cl)cc2)C(c2ccc(Cl)cc2)N1	12.5 µg/mL	BACTEC	inhibition	H37Rv			0%
COc1cc(-c2ccccc2)c2ccc(N3CCNCC3)nc2n1	12.5 µg/mL		inhibition	H37Rv			34%
C[C@@H]1CN(c2c(F)c(N)c3c(=O)c(C(=O)O)cn(C4CC4)c3c2F)C[C@H](C)N1			MIC50	25 strains			0.1 µg/mL
CC1(C)OC2/C(=N\O)C3COC(O3)C2O1		BACTEC	MIC bound	H37Rv			>12.5 µg/mL
COc1nc2ccc(Br)cc2cc1[C@@H](c1ccccc1)[C@@](O)(CCN(C)C)c1cccc2ccccc12		resazurin	MIC90	H37Rv			0.0625 µg/mL
CN[C@@H]1[C@H](O[C@H]2[C@H](O[C@H]3[C@H](O)[C@@H](O)[C@H](N=C(N)N)[C@@H](O)[C@@H]3N=C(N)N)O[C@@H](C)[C@]2(O)C=O)O[C@@H](CO)[C@H](O)[C@H]1O			MIC	9133			<2 µg/mL
Cc1cc(C)n(/N=C/c2ccc([N+](=O)[O-])o2)c(=O)c1C#N		BACTEC	MIC bound	H37Rv			≤12.5 µg/mL
Nc1ccc2c(-c3ccccc3)cc(N(CCO)CCO)nc2n1			EC50	H37Rv			>12.5 µg/mL
CO[C@H]1/C=C/O[C@@]2(C)Oc3c(C)c(O)c4c(O)c(cc(OCC(=O)N5CCOCC5)c4c3C2=O)NC(=O)/C(C)=C\C=C\[C@H](C)[C@H](O)[C@@H](C)[C@@H](O)[C@@H](C)[C@H](OC(C)=O)[C@@H]1C			MIC	H37Rv			0.1 µg/mL
Cn1c(SCc2ccccc2)nnc1-c1ccc(N)cc1	6.25 µg/mL		inhibition	H37Rv			<50%
Cc1c(C(=O)N2CCN(Cc3ccccc3)CC2)[n+](=O)c2cc(Cl)c(Cl)cc2n1[O-]			MIC	H37Rv			>6.25 µg/mL
CC1CN(c2c(F)cc3c(=O)c(C(=O)O)cn(C4CC4)c3c2F)CC(C)N1			MIC	Strain 24			0.25 µg/mL
CCN(C)C(=O)COc1cc2c(O)c3c(O)c(C)c4c(c13)C(=O)[C@@](C)(O/C=C/[C@H](OC)[C@@H](C)[C@@H](OC(C)=O)[C@H](C)[C@H](O)[C@H](C)[C@@H](O)[C@@H](C)/C=C/C=C(/C)C(=O)N2)O4			MIC	H37Rv			0.37 µg/mL
CC1COc2c(N3CCN(C)CC3)c(F)cc3c(=O)c(C(=O)O)cn1c23			MIC50	79 strains (drug-susceptible)			0.27 µg/mL
C[N+](C)=c1ccc2nc3c(cc(NCCCNc4cc5oc6cc(=[N+](C)C)ccc-6nc5c5ccccc45)c4ccccc43)oc-2c1.[Cl-].[Cl-]		BACTEC	MIC	H37Rv			3.13 µg/mL
COc1ccc(-c2csc(-n3cccc3)n2)cc1OC		resazurin	MIC	H37Rv			50 µg/mL
c1ccc2c(c1)nc1cc(NC3CCCCC3)c(=NC3CCCCC3)cc-1n2C1CCCCC1			MIC	TAC-R			3.1 µg/mL
COc1cccc(/C=C/C(=O)c2ccc(F)cc2)c1F		MTT	MIC	H37Rv	21 d		32 µg/mL
Nc1cc(-c2ccccc2)c2ccc(=O)[nH]c2n1	12.5 µg/mL		inhibition	H37Rv			0%
Cl.Cl.Cl.FC(F)(F)c1ccc2c(c1)N(CCCN1CCN(CCN3CCOCC3)CC1)c1ccccc1S2		BACTEC	MIC	H37Rv			12.5 µg/mL
O=C(O)c1cn(C2CC2)c2c(F)c(N3CCSCC3)c(F)cc2c1=O			MIC	CSU21			2 µg/mL
Cc1ccc(NC(=O)COc2ccc(Cl)cc2)cc1Cl		BACTEC	MIC bound	H37Rv			>12.5 µg/mL
Cc1ccc(C)n1-c1ccc(C(=O)NN2C(=O)c3c(Br)c(Br)c(Br)c(Br)c3C2=O)cc1		resazurin	MIC	H37Rv			0.4 µg/mL
CCOC(=O)c1ccc2[nH]c(-c3ccc(S(=O)(=O)F)cc3)cc(=O)c2c1		BACTEC	MIC bound	H37Rv			>12.5 µg/mL
Fc1ccc(-c2csc(-n3cccc3)n2)cc1		resazurin	MIC	H37Rv			0.2 µg/mL
C[C@H]1COc2c(N3CCN(C)CC3)c(F)cc3c(=O)c(C(=O)O)cn1c23			MIC	CSU21			0.5 µg/mL
Cc1c(C(=O)N2CCN(Cc3ccccc3)CC2)[n+](=O)c2ccccc2n1[O-]			MIC	H37Rv			>6.25 µg/mL
Clc1ccc(-c2csc(-n3cccc3)n2)c(Cl)c1		resazurin	MIC	H37Rv			0.8 µg/mL
Cn1c(=O)c2c3c(cnc2n(C)c1=O)C(=O)C1=C(C3=O)C2CCC1C2		luminescence	EC99	H37Rv		pSMT1 luciferase reporter plasmid	10.43 µg/mL
Cc1nc2c(n1CCO)C(=O)c1nc(C)n(CCO)c1C2=O		BACTEC	MIC bound	H37Rv			>12.5 µg/mL
CC(=O)Nc1ccc2c(-c3ccccc3)cc(=O)[nH]c2n1	12.5 µg/mL		inhibition	H37Rv			2%
O=C(c1cn[nH]n1)c1ccc(Cl)cc1Cl			MIC	H37Rv			>12.5 µg/mL
CO[C@H]1/C=C/O[C@@]2(C)Oc3c(C)c(O)c4c(O)c(cc(OCC(=O)N5CCCCCC5)c4c3C2=O)NC(=O)/C(C)=C\C=C\[C@H](C)[C@H](O)[C@@H](C)[C@@H](O)[C@@H](C)[C@H](OC(C)=O)[C@@H]1C			MIC	H37Rv			0.09 µg/mL
Cc1cc2c(cc1C)[n+](=O)c(C(=O)N1CCN(c3ccccc3)CC1)c(C)n2[O-]			MIC	H37Rv			>6.25 µg/mL
CCOC(=O)c1cn[nH]n1	12.5 µg/mL		inhibition	H37Rv			29%
Clc1ccc2c(-c3ccccc3)cc(Cl)nc2n1			EC50	H37Rv			>12.5 µg/mL
O=C(c1cn(-c2ccccc2)nn1)c1ccc(Br)cc1Br	12.5 µg/mL		inhibition	H37Rv			29%
O=C(/C=C/c1ccc(F)cc1)c1ccc(F)cc1		MTT	MIC	H37Rv	14 d		32 µg/mL
COc1ccc2c(c1)C1C3OC(c4ccccc43)C1S(=O)N2	12.5 µg/mL	BACTEC	inhibition	H37Rv			34%
O=C(/C=C/c1ccccc1)c1ccc(F)cc1		MTT	MIC	H37Rv	7 d		32 µg/mL
CCCCCn1c(=O)c2c3c(cnc2n(CCCCC)c1=O)C(=O)C1=C(C3=O)C2CCC1C2		luminescence	EC99	H37Rv		pSMT1 luciferase reporter plasmid	9.54 µg/mL
NNC(=O)C(N)Cc1ccc(O)cc1	12.5 µg/mL	BACTEC	inhibition	H37Rv			-33%
Cc1ccc(-n2c(SCc3ccc(Cl)cc3Cl)nnc2-c2ccc(N)cc2)cc1	6.25 µg/mL		inhibition	H37Rv			<50%
O=C(c1cn[nH]n1)c1ccc(Br)cc1Br	12.5 µg/mL		inhibition	H37Rv			0%
Cc1ccc(-n2c(SCc3ccccc3)nnc2-c2ccc(N=Cc3ccc(Cl)cc3)cc2)cc1			EC50	H37Rv			>6.25 µg/mL
Cc1c(C(=O)Nc2ccccc2)[n+](=O)c2ccccc2n1[O-]			EC50	H37Rv	inside macrophages		<2.79 µg/mL
COc1ccc(C(=O)/C=C/c2ccccc2Cl)cc1		resazurin	MIC	H37Rv	14 d		32 µg/mL
COc1ccccc1N1CCN(CCc2c[nH]c3cc4c(cc23)OCO4)CC1.O=C(O)[C@H](O)[C@@H](O)C(=O)O	6.25 µg/mL	resazurin	inhibition	H37Rv			16%
Cc1c(C(=O)NC(C)(C)C)[n+](=O)c2ccccc2n1[O-]			MIC	H37Rv			>6.25 µg/mL
O=C1NC2NC(=O)NC2N1	12.5 µg/mL	BACTEC	inhibition	H37Rv			-4%
CCCCCCCn1c(=O)c2c3c(cnc2n(CCCCCCC)c1=O)C(=O)C1=C(C3=O)C2CCC1CC2		luminescence	EC99	H37Rv		pSMT1 luciferase reporter plasmid	6.89 µg/mL
CC[C@H]1OC(=O)[C@H](C)[C@@H](O[C@H]2C[C@@](C)(OC)[C@@H](O)[C@H](C)O2)[C@H](C)[C@@H](O[C@@H]2O[C@H](C)C[C@H](N(C)C)[C@H]2O)[C@](C)(OC)C[C@@H](C)C(=O)[C@H](C)[C@@H](O)[C@]1(C)O			MIC	MC8			>4 µg/mL
CNn1c(-c2ccccc2)n[nH]c1=O		BACTEC	MIC bound	H37Rv			>12.5 µg/mL
CC(C)Cn1c(=O)c2c3c(cnc2n(CC(C)C)c1=O)C(=O)C1=C(C3=O)C2CCC1CC2		luminescence	EC99	H37Rv		pSMT1 luciferase reporter plasmid	12.28 µg/mL
O=C(/C=C/c1ccc(F)cc1Cl)c1ccccc1		MTT	MIC	H37Rv	14 d		32 µg/mL
C[C@@H]1CC[C@@]2(OC1)O[C@H]1C[C@H]3[C@@H]4CC[C@H]5C[C@@H](O)CC[C@]5(C)[C@H]4CC[C@]3(C)[C@H]1[C@@H]2C		BACTEC	MIC	H37Rv			≥12.8 µg/mL
CCCCN(CCCC)N(C)C(=O)COc1cc2c(O)c3c(O)c(C)c4c(c13)C(=O)[C@@](C)(O/C=C/[C@H](OC)[C@@H](C)[C@@H](OC(C)=O)[C@H](C)[C@H](O)[C@H](C)[C@@H](O)[C@@H](C)/C=C/C=C(/C)C(=O)N2)O4			MIC	H37Rv			0.09 µg/mL
CC(C)(C)C1=CC(=O)C(C(C)(C)C)=CC1=O		BACTEC	MIC bound	H37Rv			≤128 µg/mL
Cc1c(C(=O)N2CCN(c3ccc([N+](=O)[O-])cc3)CC2)[n+](=O)c2cc(Cl)c(Cl)cc2n1[O-]			MIC	H37Rv			>6.25 µg/mL
O=C(/C=C/c1ccccc1)c1ccccc1		resazurin	MIC	H37Rv	7 d		16 µg/mL
CCOC(=O)N1CCN(c2ccc3c(-c4ccccc4)cc(=O)[nH]c3n2)CC1	12.5 µg/mL		inhibition	H37Rv			0%
Cn1c(SCc2ccc(Cl)cc2Cl)nnc1-c1ccc(N=Cc2c(Cl)cccc2Cl)cc1			EC50	H37Rv			>6.25 µg/mL
CC1CN(c2c(F)cc3c(=O)c(C(=O)O)cn(C4CC4)c3c2F)CCN1			MIC	CSU15			≤0.125 µg/mL
O=c1c(O)c(-c2ccc(O)c(O)c2)oc2cc(O)cc(O)c12	6.25 µg/mL		inhibition	H37Rv			0%
Nc1ccc(-c2nnc(SCc3ccc(Cl)cc3Cl)n2C2CCCCC2)cc1			EC50	H37Rv			<6.25 µg/mL
COC(=O)C(CO)NC(=O)C(Cc1ccccc1)NC(=O)OC(C)(C)C		BACTEC	MIC	H37Rv			≥12.8 µg/mL
C=C(C)/C=C/[C@]12C[C@H](C)[C@H]3CC[C@](C)(NC=O)[C@@H](CC[C@H]1C)[C@@H]32	64 µg/mL		inhibition	H37Rv			100%
CC(C)Cn1c(=O)c2c3c(cnc2n(CC(C)C)c1=O)C(=O)C1=C(C3=O)C2CCC1C2		luminescence	EC99	H37Rv		pSMT1 luciferase reporter plasmid	11.01 µg/mL
Nc1ccc2c(-c3ccccc3)cc(N3CCNCC3)nc2n1			EC50	H37Rv			>12.5 µg/mL
Cn1nnc(/C(N)=N/N=C/c2ccccc2)n1		BACTEC	MIC bound	H37Rv			>12.5 µg/mL
Cc1cc2c(cc1C)[n+](=O)c(C(=O)N1CCN(Cc3ccccc3)CC1)c(C)n2[O-]	6.25 µg/mL		inhibition	H37Rv			0%
Cc1nc(C)c(C(=O)Nc2cccc3c2C(=O)NC3=O)cc1C(=O)Nc1cccc2c1C(=O)NC2=O		BACTEC	MIC	H37Rv			≥12.5 µg/mL
CO[C@H]1/C=C/O[C@@]2(C)Oc3c(C)c(O)c4c(O)c(cc(OCC(N)=O)c4c3C2=O)NC(=O)/C(C)=C\C=C\[C@H](C)[C@H](O)[C@@H](C)[C@@H](O)[C@@H](C)[C@H](OC(C)=O)[C@@H]1C			MIC	H37Rv			0.009 µg/mL
COc1ccc(C(=O)/C=C/c2ccc(F)cc2)c(F)c1		MTT	MIC	H37Rv	21 d		32 µg/mL
C=CCN(CC=C)C(=O)COc1cc2c(O)c3c(O)c(C)c4c(c13)C(=O)[C@@](C)(O/C=C/[C@H](OC)[C@@H](C)[C@@H](OC(C)=O)[C@H](C)[C@H](O)[C@H](C)[C@@H](O)[C@@H](C)/C=C/C=C(/C)C(=O)N2)O4			MIC	H37Rv			0.37 µg/mL
Cc1ccc(-n2c(SCc3ccc(Cl)cc3Cl)nnc2-c2ccc(N=Cc3ccc(Cl)cc3)cc2)cc1	6.25 µg/mL		inhibition	H37Rv			<50%

The last 9 rows once more:

smiles	dose	read by	read-out	strain	conditions	mutations	value
CC(C)Cn1c(=O)c2c3c(cnc2n(CC(C)C)c1=O)C(=O)C1=C(C3=O)C2CCC1C2		luminescence	EC99	H37Rv		pSMT1 luciferase reporter plasmid	11.01 µg/mL
Nc1ccc2c(-c3ccccc3)cc(N3CCNCC3)nc2n1			EC50	H37Rv			>12.5 µg/mL
Cn1nnc(/C(N)=N/N=C/c2ccccc2)n1		BACTEC	MIC bound	H37Rv			>12.5 µg/mL
Cc1cc2c(cc1C)[n+](=O)c(C(=O)N1CCN(Cc3ccccc3)CC1)c(C)n2[O-]	6.25 µg/mL		inhibition	H37Rv			0%
Cc1nc(C)c(C(=O)Nc2cccc3c2C(=O)NC3=O)cc1C(=O)Nc1cccc2c1C(=O)NC2=O		BACTEC	MIC	H37Rv			≥12.5 µg/mL
CO[C@H]1/C=C/O[C@@]2(C)Oc3c(C)c(O)c4c(O)c(cc(OCC(N)=O)c4c3C2=O)NC(=O)/C(C)=C\C=C\[C@H](C)[C@H](O)[C@@H](C)[C@@H](O)[C@@H](C)[C@H](OC(C)=O)[C@@H]1C			MIC	H37Rv			0.009 µg/mL
COc1ccc(C(=O)/C=C/c2ccc(F)cc2)c(F)c1		MTT	MIC	H37Rv	21 d		32 µg/mL
C=CCN(CC=C)C(=O)COc1cc2c(O)c3c(O)c(C)c4c(c13)C(=O)[C@@](C)(O/C=C/[C@H](OC)[C@@H](C)[C@@H](OC(C)=O)[C@H](C)[C@H](O)[C@H](C)[C@@H](O)[C@@H](C)/C=C/C=C(/C)C(=O)N2)O4			MIC	H37Rv			0.37 µg/mL
Cc1ccc(-n2c(SCc3ccc(Cl)cc3Cl)nnc2-c2ccc(N=Cc3ccc(Cl)cc3)cc2)cc1	6.25 µg/mL		inhibition	H37Rv			<50%